These are literature values, as cited in patent US7537765B2, “Inhibition of HIV-1 replication by disruption of the processing of the viral capsid-spacer peptide 1 protein” (priority 2003, dated 2009).

The data set deals with HIV-1 replication in H9 lymphocyte cells. The note with it: cited from earlier work; for therapeutic index (T.I.): H9 lymphocyte cells; for T.I.: acutely infected H9 lymphocytes.

The source's definition of the ratio is not given here.

`C=C(C)[C@@H]1CC[C@]2(C(=O)O)CC[C@]3(C)[C@H](CC[C@@H]4[C@@]5(C)CC[C@H](O)C(C)(C)[C@@H]5CC[C@]43C)[C@@H]12` [Betulinic acid]: the “therapeutic index (T.I.)” value is listed as 9.3.

With `C=C(C)[C@@H]1CC[C@]2(C(=O)O)CC[C@]3(C)[C@H](CC[C@@H]4[C@@]5(C)CC[C@H](OC(=O)CC(C)(C)C(=O)O)C(C)(C)[C@@H]5CC[C@]43C)[C@@H]12` [DSB, 3-O-(3′,3′-dimethylsuccinyl)betulinic acid], the T.I. result was “more than 970,000”.

For the compound `CC(C)[C@@H]1CC[C@]2(C(=O)O)CC[C@]3(C)[C@H](CC[C@@H]4[C@@]5(C)CC[C@H](OC(=O)CC(C)(C)C(=O)O)C(C)(C)[C@@H]5CC[C@]43C)[C@@H]12` [dihydrobetulinic acid analog, 3-O-(3′,3′-dimethylsuccinyl)dihydrobetulinic acid], the T.I. result is recorded as “more than 400,000”.

`CC(C)[C@@H]1CC[C@]2(C(=O)O)CC[C@]3(C)C(CCC4[C@@]5(C)CC[C@H](O)C(C)(C)C5CC[C@]43C)C12` (some centres unmarked) [dihydrobetulinic acid]: the “therapeutic index (T.I.)” value was 14.

Take `CC(=O)[C@@H]1CC[C@]2(C(=O)O)CC[C@]3(C)[C@H](CC[C@@H]4[C@@]5(C)CC[C@H](O)C(C)(C)[C@@H]5CC[C@]43C)[C@@H]12` [platanic acid]: the “therapeutic index (T.I.)” value is reported as 14.
